The test system of data set [1] is RovA-His6 (Yersinia enterocolitica O9 Ye9). As to the kind of experiment: EMSA. The conditions noted are these: 0.125-1.0 ug RovA, stepwise shift, 40 mM Tris-HCl pH 8.0, 100 mM KCl, 10 mM MgCl2, 5% glycerol, room temperature 30 min, recombinant protein, residues 1-143, protein details: His6 (text states both N-terminal and C-terminal), probe letters rebuilt from the primers and the genome. In general terms: In EMSA bound probe runs differently from free probe, usually more slowly.

Data set [2] deals with T1, OmpR-His6 (non-phosphorylated) (UniProt P74982).
T1 sequence (looked up): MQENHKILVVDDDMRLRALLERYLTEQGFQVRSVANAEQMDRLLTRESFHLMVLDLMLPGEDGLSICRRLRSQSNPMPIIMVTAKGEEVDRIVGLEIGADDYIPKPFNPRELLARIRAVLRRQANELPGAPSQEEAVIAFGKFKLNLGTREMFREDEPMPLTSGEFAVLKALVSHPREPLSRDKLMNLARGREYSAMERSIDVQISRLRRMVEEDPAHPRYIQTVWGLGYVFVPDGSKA
Description: EMSA. Particulars: 0.1-0.4 ug, minimum binding amount about 3-fold higher than OmpR-P, 40 mM Tris-HCl pH 8.0, 100 mM KCl, 10 mM MgCl2, 5% glycerol, room temperature 30 min, recombinant protein, residues 1-239, protein details: N-terminal His6, probe letters rebuilt from the primers and the genome.

The values that follow come from paper PMC3524506.

For some assays here: For at least one entry, the source does not settle the construct or the ends of the probe. For some assays here: Tags and fusion partners may be left off the protein sequences shown.

On to “TTTTGCTGTGAGAACCCATAAGTAAATATTCCAAATATTAAACCGATCGATAATATTAGCCTGCTAATGATTTTAGTCACAGTTAGCGTATTAAAAAATGAATACATTAGTGTACCCCTTAGGTATAAATTAACGCGGTAATATTTACTTAAGCAACAGAAATGAAAACAGCGACAAGAAATAACTTCTTCTTCTCTCTCGCAAACACTAACAATACAATATAATAGCAGAACTTACAAAAATAAAATTAAAAAATTAAAAATAACAGCAATAACAAATGAAATGCAAAAAAAATTCATCATGGTAATATTAGCTTGCTAATTTAATTGTCAGGTTATATTTAGCCTGAATATATATGGTGATATGTTATTATTATCAAAATAGCTTACATTCGTCTCATAAAATAGACTCTCTGCATTTTTCACGATGCATTAATCTAATGCGGCTAAGCAACCGCTGGCTTAGTTTAAAGGAGGGTATATGAAAAAACAGAGTGTACTTTTGAGTTTGATTTTTTGCAGTGTGATGGCGATGTCAT (double strand) [inv promoter fragment 553 bp]”, for which the binding result in data set [1] and in data set [2] was “binds” in each case.
